Results of unrelated studies side by side (data: NIAID ChemDB).

Common to all: tests in culture; species: Hepatitis C virus; read by: replicon; measure: EC50

ECn: concentration that inhibits the pathogen or its effect by n%. Neighbouring rows are from separate reports. Two numbers with a dash give a range or band.

{"smiles": "CCOc1nc(NCc2ccc(F)cc2)nc2ccc(-c3cccc(NS(=O)(=O)C4CC4)c3)nc12", "value": "<0.1 µM"}
{"smiles": "CCOC(=O)/C=C/c1ccc(NC(=O)C2(NC(=O)c3ccc4c(C5CCCCC5)c5n(c4c3)CC(C(=O)O)Nc3ccccc3-5)CCCC2)cc1", "cells": "Huh7", "value": "0.01–1 µM"}
{"smiles": "CNC(=O)c1c(-c2ccc(F)cc2)oc2cc(N3CCOCC3)c(OC(C)c3ccc(F)cc3)cc12", "cells": "Huh7", "value": "<1 µM"}
{"smiles": "CCNC(=O)N(CCCN(C)C)C(=O)c1ccc2c(C3CCCCC3)c3n(c2c1)CCCc1ccccc1-3", "cells": "Huh7", "value": "1–10 µM"}
{"smiles": "CNC(=O)c1c(-c2ccc(F)cc2)oc2cc(C3(C)NC(=O)NC3=O)c(OC)cc12", "cells": "Huh7", "value": "<10 µM"}
{"smiles": "CC1CCC(C(=O)N(c2cc(-c3ccc(NC(=O)c4ccn(C)n4)cc3)sc2C(=O)O)C(C)C)CC1", "strain or isolate": "1b", "value": "<0.5 µM"}
{"smiles": "CCOc1nc(NCc2ccc(F)cc2)nc2ccc(-c3ccc(NC(=O)N4CCCC4)cc3)nc12", "value": "<0.1 µM"}
{"smiles": "CN(c1ccccc1/C=N/NC(=O)Cc1ccccc1)S(=O)(=O)c1ccc(C(F)(F)F)cc1", "cells": "Huh7", "value": "<5 µM"}
{"smiles": "CNC(=O)c1c(-c2ccc(F)cc2)oc2cc(N(Cc3ccc(OC)cc3)S(C)(=O)=O)c(OC(C)C)cc12", "cells": "Huh7", "value": "<1 µM"}
{"smiles": "NC(=O)COc1ccc2c(c1)S(=O)(=O)N=C(c1c(O)c3cc(F)ccc3n(CCC3CC3)c1=O)N2", "strain or isolate": "1b 33778", "value": "0.062 µM"}
{"smiles": "O=C(O)c1c(-c2ccc[nH]c2=O)c2c3c(ccc2n1Cc1ccccc1F)OCCO3", "value": "1–10 µM"}
{"smiles": "O=C(Cc1cc(F)c(F)c(F)c1)N/N=C/c1ccccc1OS(=O)(=O)c1ccc(C(F)(F)F)cc1", "cells": "Huh7", "value": "<5 µM"}
{"smiles": "CS(=O)(=O)NC(=O)c1c(-c2ccc[nH]c2=O)c2c3occc3ccc2n1Cc1cc(C(N)=O)ccc1F", "value": "<0.5 µM"}
{"smiles": "O=C(O)/C=C/c1ccc(NC(=O)C2(NC(=O)c3ccc4c(C5CCCCC5)c5n(c4c3)CCCc3ccccc3-5)CCCC2)cc1", "cells": "Huh7", "value": "0.01–1 µM"}
{"smiles": "CCN(C(=O)C1CCC(C)CC1)c1cc(-c2ccc(NC(=O)c3ccn[nH]3)cc2)sc1C(=O)O", "strain or isolate": "1b", "value": "<0.5 µM"}
{"smiles": "CNC(=O)c1c(-c2ccc(F)cc2)oc2cc(N)c(OCc3ccccc3)cc12", "cells": "Huh7", "value": "<10 µM"}
{"smiles": "CN(CCO)C(=O)C1=Cc2ccccc2C2=C(C3CCCCC3)c3cc(C(=O)NS(=O)(=O)N(C)C)ccc3C2C1", "cells": "Huh7", "value": "0.01–1 µM"}
{"smiles": "O=C(Cc1ccccc1Br)N/N=C/c1ccccc1OS(=O)(=O)c1ccc(C(F)(F)F)cc1", "cells": "Huh7", "value": "<5 µM"}
{"smiles": "Cc1cc(-c2cc(N(C(=O)C3CCC(C)CC3)C(C)C)c(C(=O)O)s2)cnc1NC(=O)c1cscn1", "strain or isolate": "1b", "value": "<0.5 µM"}
{"smiles": "COC(=O)c1ccc2c(C3CCCCC3)c3n(c2c1)CC(C(=O)OCc1ccccc1)=Cc1ccccc1-3", "cells": "Huh7", "value": "1–10 µM"}
{"smiles": "CC(C)Oc1nc(N)nc2ccc(-c3ccc(C(=O)NC4CCCC4)cc3)nc12", "cells": "Huh7", "value": "0.3–1 µM"}
{"smiles": "CN(C)S(=O)(=O)NC(=O)c1ccc2c(C3CCCCC3)c3n(c2c1)C[C@H](C(=O)N1CCC(N2CCCC2)CC1)Cc1ccccc1-3", "cells": "Huh7", "value": "0.01–1 µM"}
{"smiles": "CCOc1nc(NCc2cc(F)cc(F)c2)nc2ccc(-c3ccc(F)cc3)nc12", "value": "<0.1 µM"}
{"smiles": "CN(C)S(=O)(=O)NC(=O)c1ccc2c(C3CCCCC3)c3n(c2c1)CC(C(=O)O)=Cc1ccccc1-3", "cells": "Huh7", "value": ">10 µM"}
{"smiles": "O=C(NS(=O)(=O)C1CC1)c1c(-c2ccc[nH]c2=O)c2c3occc3c(F)cc2n1Cc1cc(Cl)nc2ccccc12", "value": "0.5–1.5 µM"}
{"smiles": "CN(C)c1nc(NCc2ccc(F)cc2)nc2ccc(-c3ccc(F)cc3)nc12", "value": "0.25–2 µM"}
{"smiles": "O=C(Cc1cccs1)N/N=C/c1ccccc1OS(=O)(=O)c1ccc(C(F)(F)F)cc1", "cells": "Huh7", "value": "<5 µM"}
{"smiles": "CNC(=O)c1c(-c2ccc(F)cc2)oc2cc(N3CCOCC3)c(OC(C)C)cc12", "cells": "Huh7", "value": "<1 µM"}
{"smiles": "NS(=O)(=O)c1ccc(CNc2nc(NCC(F)(F)F)c3nc(-c4ccc(F)cc4)ccc3n2)cc1", "value": "<0.1 µM"}
{"smiles": "COC(=O)CCc1ccc(S(=O)(=O)Oc2ccccc2/C=N/NC(=O)Cc2cccc(OC)c2)cc1", "cells": "Huh7", "value": ">50 µM"}
{"smiles": "NS(=O)(=O)c1ccc(CNc2nc(OC3CC3)c3nc(-c4ccc(F)cc4)ccc3n2)cc1", "value": "<0.1 µM"}
{"smiles": "CC1CCC(C(=O)N(CC2CC2)c2cc(-c3ccc(NC(=O)c4ccccn4)cc3)sc2C(=O)O)CC1", "strain or isolate": "1b", "value": "<0.5 µM"}
{"smiles": "CNC(=O)c1c(-c2ccc(F)cc2)oc2cc(N(C)S(C)(=O)=O)c(OCC(=O)Nc3nc(C)c(C)s3)cc12", "cells": "Huh7", "value": "<1 µM"}
{"smiles": "CC1CCC(C(=O)N(CC2CC2)c2cc(-c3ccc(NC(=O)c4ccn(C)n4)cc3)sc2C(=O)O)CC1", "strain or isolate": "1b", "value": "<0.5 µM"}
{"smiles": "CCS(=O)(=O)NC(=O)c1c(-c2ccc[nH]c2=O)c2c3occc3ccc2n1Cc1ccccc1F", "value": "<0.5 µM"}
{"smiles": "COCCNS(=O)(=O)c1cc(-c2ccc3nc(NCc4ccc(S(N)(=O)=O)cc4)nc(NCC(F)(F)F)c3n2)ccc1Cl", "value": "<0.1 µM"}
{"smiles": "O=C(NS(=O)(=O)C1CC1)c1c(-c2ccc[nH]c2=O)c2c3occc3c(F)cc2n1Cc1cc(=O)[nH]cc1F", "value": "<0.5 µM"}
{"smiles": "CCOc1nc(NCc2ccc(S(N)(=O)=O)cc2)nc2ccc(-c3ccc(S(N)(=O)=O)cc3)nc12", "value": "<0.1 µM"}
{"smiles": "CS(=O)(=O)NC(=O)c1c(-c2ccc[nH]c2=O)c2c3occc3c(F)cc2n1Cc1ccccc1F", "value": "<0.5 µM"}
{"smiles": "Cc1cc(C(=O)Nc2ccc(-c3cc(N(C(=O)C4CCC(C)CC4)C(C)C)c(C(=O)O)s3)cc2)on1", "strain or isolate": "1b", "value": "<0.5 µM"}
{"smiles": "COc1ccc2[nH]cc(CC(=O)N/N=C/c3ccccc3OS(=O)(=O)c3ccc(C(F)(F)F)cc3)c2c1", "cells": "Huh7", "value": "5–50 µM"}
{"smiles": "CC1CCC(C(=O)N(c2cc(-c3ccc(NC(=O)c4cn(C)cn4)cc3)sc2C(=O)O)C2CCC2)CC1", "strain or isolate": "1b", "value": "<0.5 µM"}
{"smiles": "COc1cccc(CC(=O)N/[N+](C)=C/c2ccc(F)cc2OS(=O)(=O)c2ccc(C(F)(F)F)cc2)c1", "cells": "Huh7", "value": ">50 µM"}
{"smiles": "CS(=O)(=O)NC(=O)c1c(-c2ccc[nH]c2=O)c2c3occc3c(F)cc2n1Cc1cc([N+](=O)[O-])ccc1F", "value": "<0.5 µM"}
{"smiles": "CC(=O)Nc1ccc(CNc2cccc(CC(=O)N/N=C/c3ccccc3OS(=O)(=O)c3ccc(C(F)(F)F)cc3)c2)cc1", "cells": "Huh7", "value": "<5 µM"}
{"smiles": "Cc1cc2ccc3c(c(-c4ccc[nH]c4=O)c(C(=O)NS(C)(=O)=O)n3Cc3ccccc3F)c2o1", "value": "0.5–1.5 µM"}
{"smiles": "CNC(=O)c1c(-c2ccc(F)cc2)oc2cc(N(Cc3c(C)noc3C)S(C)(=O)=O)c(OC)cc12", "cells": "Huh7", "value": "<10 µM"}
{"smiles": "CC1CCC(C(=O)N(c2cc(-c3ccc(NC(=O)c4ccncn4)cc3)sc2C(=O)O)C(C)C)CC1", "strain or isolate": "1a", "value": "<0.5 µM"}
{"smiles": "O=C(Cc1c(F)c(F)c(F)c(F)c1F)N/N=C/c1ccccc1OS(=O)(=O)c1ccc(C(F)(F)F)cc1", "cells": "Huh7", "value": ">50 µM"}
{"smiles": "CC1CCC(C(=O)N(c2cc(-c3ccc(NC(=O)c4ccccn4)s3)sc2C(=O)O)C(C)C)CC1", "strain or isolate": "1a", "value": "<0.5 µM"}
{"smiles": "Cc1cc2ccc3c(c(-c4ccc[nH]c4=O)c(C(=O)O)n3Cc3cc(F)ccc3F)c2o1", "value": ">1.5 µM"}